Test results as given in PMC7535981, “RovC - a novel type of hexameric transcriptional activator promoting type VI secretion gene expression” (PLoS Pathogens, 2020).

Key:
[1] = target: the molecule itself
[2] = target: the molecule itself; test: SEC-MALS

Protein	stoichiometry N [1]	stoichiometry N [2]
RovC (regulator of virulence interconnected with the Csr system), wildtype (natural protein) MRKKLYNDFAWECLRRNPQYISDWELFMKNTLTNGGGIPDDSELIQSELDLNAEKKWGVMKYIDPYNSDPTNVFWSLKLSNRSVRVKLSNTGNVKGGYTWGDMSNLPGVKHQRLLMHDNTLCVKIFSQNGYFQLFIESADALKDDSNLYIYIPLNLESDVFAKNIELLQSIVNHKIEVECKEEQYLGLLKTIDDRKQGFSHRDIASEIFGKELVKNEWSADSWVRAKIRYRIKKANALINYGYLNFL	6	
RovC S219E/A220E mutant (natural protein) MRKKLYNDFAWECLRRNPQYISDWELFMKNTLTNGGGIPDDSELIQSELDLNAEKKWGVMKYIDPYNSDPTNVFWSLKLSNRSVRVKLSNTGNVKGGYTWGDMSNLPGVKHQRLLMHDNTLCVKIFSQNGYFQLFIESADALKDDSNLYIYIPLNLESDVFAKNIELLQSIVNHKIEVECKEEQYLGLLKTIDDRKQGFSHRDIASEIFGKELVKNEWEEDSWVRAKIRYRIKKANALINYGYLNFL		6
RovC R202E mutant (natural protein) MRKKLYNDFAWECLRRNPQYISDWELFMKNTLTNGGGIPDDSELIQSELDLNAEKKWGVMKYIDPYNSDPTNVFWSLKLSNRSVRVKLSNTGNVKGGYTWGDMSNLPGVKHQRLLMHDNTLCVKIFSQNGYFQLFIESADALKDDSNLYIYIPLNLESDVFAKNIELLQSIVNHKIEVECKEEQYLGLLKTIDDRKQGFSHEDIASEIFGKELVKNEWSADSWVRAKIRYRIKKANALINYGYLNFL		6
RovC R225E mutant (natural protein) MRKKLYNDFAWECLRRNPQYISDWELFMKNTLTNGGGIPDDSELIQSELDLNAEKKWGVMKYIDPYNSDPTNVFWSLKLSNRSVRVKLSNTGNVKGGYTWGDMSNLPGVKHQRLLMHDNTLCVKIFSQNGYFQLFIESADALKDDSNLYIYIPLNLESDVFAKNIELLQSIVNHKIEVECKEEQYLGLLKTIDDRKQGFSHRDIASEIFGKELVKNEWSADSWVEAKIRYRIKKANALINYGYLNFL		6

Like-named read-outs stand apart in the source and are kept apart here.
